Anti-infective test results gathered from many reports (values: NIAID ChemDB through PubChem).

All rows: whole-cell or culture tests; species: HIV-1; method: p24; endpoint: EC50

An empty or dashed field is not shown. ECn is the concentration giving n% inhibition of infection, replication or growth. Two numbers with a dash give a range or band. Lines come from different laboratories, so protocols vary.

SMILES,setting,cells,strain or isolate,mutations,result
CCCc1cc(=O)oc2c3c(c4c(c12)OC(C)(C)CC4)O[C@@H](C)[C@H](C)[C@@H]3O,-,MM + M/M,BaL,-,0.1 µM
Cc1cc(C)cc(S(=O)(=O)c2c(C(N)=O)[nH]c3ccc(Cl)cc23)c1,-,C8166,EFV-resistant (RT K103R V179D P225H),-,<0.08 µM
C[C@@]12CCC[C@@](C)(C(=O)O)[C@H]1CC[C@@]13C[C@@H](CC[C@H]12)[C@@](O)(CO)C3,-,H9,IIIB,-,>100 µg/mL
Cn1ccnc1S(=O)(=O)Nc1cccc(C(c2c(O)cc(C(CC3CC3)CC3CC3)oc2=O)C2CC2)c1,-,H9,IIIB,-,1–3 µM
CCCCOP(=O)(OCCCC)OC[C@H]1O[C@@H](n2cc(C)c(=O)[nH]c2=O)C[C@@H]1OS(C)(=O)=O,-,C8166,RF,-,>100 µM
C[C@@]1(CO)CCC[C@@]2(C)C3CC[C@H]4CC3(CCC12)C[C@@]4(O)CO,-,H9,IIIB,-,>100 µg/mL
CCCCOP(=O)(OCCCC)OC[C@H]1O[C@@H](n2cc(C)c(=O)[nH]c2=O)C[C@@H]1N=[N+]=[N-],-,C8166,RF,-,>100 µM
CC(C)CN(C[C@@H](O)[C@H](Cc1ccccc1)NC(=O)O[C@H]1CCOC1)S(=O)(=O)c1ccc(N)cc1,-,U-937,IIIB,-,0.218 µM
COC1CN(c2ccc3c(COc4ccc(Cl)c(Oc5cc(Cl)cc(C#N)c5)c4)[nH]nc3n2)C1,-,MT-4,-,-,<20 µM
CN(C)C(=O)c1c2c(c(O)c(=O)n1C)C(=O)N(Cc1ccc(F)c(Cl)c1)CC2,-,MT-4,-,-,<10 µM
N#Cc1cc(Cl)cc(Oc2cc(OCc3[nH]nc4nc(N5CCOCC5)ccc34)ccc2Cl)c1,-,MT-4,-,-,<20 µM
Oc1cc(O)c2c(c1)O[C@H](c1ccc(O)c(O)c1)[C@H](O)[C@H]2c1c(O)cc(O)c2c1O[C@H](c1ccc(O)c(O)c1)[C@H](O)[C@H]2c1c(O)cc(O)c2c1O[C@H](c1ccc(O)c(O)c1)[C@H](O)C2,-,H9,IIIB,-,25 µM
CCn1cc(C(=O)O)c(=O)c2cc(F)c(N3CCN(c4ccccc4OC)CC3)c(OC(F)F)c21,-,OM-10.1,-,-,0.042 µM
COC(=O)c1[nH]c(=O)c(O)c2c1CCN(Cc1ccc(F)cc1)C2=O,-,MT-4,-,-,<10 µM
CO[C@H]1C[C@@H]2CC[C@@H](C)[C@@](O)(O2)C(=O)C(=O)N2CCCC[C@H]2C(=O)O[C@H]([C@H](C)C[C@@H]2CC[C@@H](O)[C@H](OC)C2)CC(=O)[C@H](C)/C=C(\C)[C@@H](O)[C@@H](OC)C(=O)[C@H](C)C[C@H](C)/C=C/C=C/C=C/1C,-,PBMC,CC101.19 R5 AD101-resistant,-,<0.0005 µM
CCN(CC)CCCC(C)Nc1ccnc2cc(Cl)ccc12,-,H9,-,-,<100 µM
Cc1cc(OCC(=O)Nc2ccc(S(N)(=O)=O)cc2Cl)cc(Oc2cc(Cl)cc(C#N)c2)c1,-,MT-4,-,-,<20 µM
CCOP(=O)(N[C@@H](Cc1ccccc1)C(=O)OC)OC[C@H]1O[C@@H](n2cc(C)c(=O)[nH]c2=O)C[C@@H]1N=[N+]=[N-],-,C8166,RF,-,10 µM
C[C@@]12CCC[C@@](C)(C=O)[C@H]1CC[C@@]13C[C@@H](CC[C@H]12)[C@](O)(CO)C3,-,H9,IIIB,-,>100 µg/mL
N#Cc1cc(Cl)cc(Oc2cc(OCc3[nH]nc4ncccc34)ccc2Cl)c1,-,MT-4,-,-,<20 µM
CCCCOP(=O)(N[C@H](C(=O)OC)C(C)C)OC[C@H]1O[C@@H](n2cc(C)c(=O)[nH]c2=O)C[C@@H]1N=[N+]=[N-],-,C8166,RF,-,3 µM
C/C=C/CSc1cc(NC(=S)c2ccsc2C)ccc1Cl,-,CEM + CEM-SS,NL4-3,RT-Y188C,0.4 µM
N#Cc1cc(Cl)cc(Oc2cc(Cl)cc(OCC(=O)Nc3ccc(C#N)cc3Cl)c2)c1,-,MT-4,-,-,<20 µM
C[C@@]12CCC[C@@](C)(C=O)C1CCC13C[C@@H](CO)[C@@H](CCC12)C3,-,H9,IIIB,-,>100 µg/mL
CC(C)(CN1CCCC1)NC(=O)[C@]12CC[C@@H](C3(C)CC3)[C@@H]1[C@H]1CC[C@@H]3[C@@]4(C)CC[C@H](OC(=O)CC(C)(C)C(=O)O)C(C)(C)[C@@H]4CC[C@@]3(C)[C@]1(C)CC2,40% human serum,MT-2,92HT599,-,≤0.05 µM
CC(C)Cn1c(C(=O)N(C)C)c2c(c(O)c1=O)C(=O)N(Cc1ccc(F)c(Cl)c1)CC2,-,MT-4,-,-,<10 µM
CC1=CCC[C@H]2[C@](C)(CC3=CC(=O)C=CC3=O)[C@@H](C)CC[C@]12C,-,H9,IIIB,-,>1 µg/mL
Cc1cc(C)cc(S(=O)(=O)c2c(C(=O)NCC(N)=O)[nH]c3ccc(Cl)cc23)c1,-,C8166,EFV-resistant (RT K103R V179D P225H),-,<0.1 µM
O=C(Nc1cc(S(=O)(=O)O)cc2cc(S(=O)(=O)O)c(N=Nc3ccc(N=Nc4c(S(=O)(=O)O)cc5cc(S(=O)(=O)O)cc(NC(=O)c6cccc(Cl)c6Cl)c5c4O)cc3)c(O)c12)c1ccc(Cl)cc1Cl,-,PBMC,ADA,-,0.8 µM
NNC(=O)c1[nH]c2ccc(Cl)cc2c1S(=O)(=O)c1ccccc1,-,C8166,IIIB,-,<0.02 µM
CCN(CC)C(=O)c1[nH]c(=O)c(O)c2c1CCN(Cc1ccc(F)cc1)C2=O,-,MT-4,-,-,<10 µM
CC(=O)N(O)CCCCCNC(=O)CCC(=O)N(O)CCCCCNC(=O)CCC(=O)N(O)CCCCCN,-,H9,IIIB,-,<30 µM
C[C@@]12CCC[C@@](C)(C(=O)O)C1CCC13C[C@@H](CO)[C@@H](CCC12)C3,-,H9,IIIB,-,>100 µg/mL
CCCOP(=O)(OCCC)OC[C@H]1O[C@@H](n2cc(C)c(=O)[nH]c2=O)C[C@@H]1OS(C)(=O)=O,-,C8166,RF,-,>100 µM
CCOC(=O)c1nnsc1Nc1ccccc1Nc1snnc1C(=O)OCC,-,C8166,NL4-3,-,15 µM
CCOP(=O)(N[C@H](C(=O)OC)[C@@H](C)CC)OC[C@H]1O[C@@H](n2cc(C)c(=O)[nH]c2=O)C[C@@H]1N=[N+]=[N-],-,C8166,RF,-,50 µM
C=C1CC23CCC4[C@](C)(CO)CCC[C@@]4(C)C2CC[C@H]1C3,-,H9,IIIB,-,>100 µg/mL
COc1ccccc1N1CCN(c2c(F)cc3c(=O)c(C(=O)O)cn(C)c3c2CN(C)C)CC1,-,PBMC,IIIB,-,0.13 µM
CCN1c2ncc(CCOc3cccc4c3ccc[n+]4[O-])cc2C(=O)N(C)c2ccc(Cl)nc21,-,C8166,-,RT-K103N Y181C,0.011 µM
Nc1nc(=O)n([C@H]2C=C[C@@H](CO)O2)cc1F,-,MT-4,XM-AZT-resistant,RT-M41L D67N K70R T215Y K219Q,<1.6 µM
COC(=O)[C@@H](NP(=O)(OC)OC[C@H]1O[C@@H](n2cc(C)c(=O)[nH]c2=O)C[C@@H]1N=[N+]=[N-])C(C)C,-,C8166,RF,-,3 µM
COC(=O)[C@H](C)NP(=O)(OC[C@@H]1C=C[C@H](n2cc(C)c(=O)[nH]c2=O)O1)Oc1ccccc1,-,MM + M/M,BaL,-,0.02 µM
Cn1cc(C(=O)O)c(=O)c2cc(F)c(N3CC=C(c4ccccc4)CC3)c(C(F)(F)F)c21,-,PBMC,IIIB,-,0.027 µM
Nc1nc(NC2CC2)c2ncn([C@H]3C=C[C@@H](CO)C3)c2n1,-,PBMC,SBH Clinical isolate,-,>0.25 µM
CCCCCCCCCCCCCCCC(=O)NC1C(COP(=O)(O)OC2CC(COP(=O)(O)OC3C(O)C(CO)OC3n3cnc4c(N)ncnc43)OC2n2cnc3c(N)ncnc32)OC(n2cnc3c(N)ncnc32)C1O,-,-,-,-,<300 µM
Cc1cc(C)cc(S(=O)(=O)c2c(C(=O)NCC(=O)NC(C)C(=O)NN)[nH]c3ccc(Cl)cc23)c1,-,C8166,EFV-resistant (RT K103R V179D P225H),-,<1 µM
CCOP(=O)(N[C@@H](C)C(=O)OC)OC[C@H]1O[C@@H](n2cc(C)c(=O)[nH]c2=O)C[C@@H]1N=[N+]=[N-],-,C8166,RF,-,3 µM
Cc1cc(OCc2nc3ccccc3s2)cc(Oc2cc(Cl)cc(C#N)c2)c1,-,MT-4,-,-,<20 µM
CC(O)CCCCCCCCCCCCCCCC(CCCCCCCCCCCCCCC1CC(=O)OCC2OC(OC(CCCCCCCCCCCCCC(CCCCCC(C)O)OC3OC(CO)C(O)C(O)C3O)CC(=O)OCC3OC(O1)C(O)C(O)C3O)C(O)C(O)C2O)OC1OC(CO)C(O)C(O)C1O,-,MT-4,LAI,-,10.35 µg/mL
C[C@@]12CCC[C@@](C)(C=O)[C@H]1CC[C@@]13C[C@@H](CC[C@H]12)[C@H](C(=O)O)C3,-,H9,IIIB,-,>100 µg/mL

A second listing of 4 rows from above:

{"SMILES": "O=C(Nc1cc(S(=O)(=O)O)cc2cc(S(=O)(=O)O)c(N=Nc3ccc(N=Nc4c(S(=O)(=O)O)cc5cc(S(=O)(=O)O)cc(NC(=O)c6cccc(Cl)c6Cl)c5c4O)cc3)c(O)c12)c1ccc(Cl)cc1Cl", "cells": "PBMC", "strain or isolate": "ADA", "result": "0.8 µM"}
{"SMILES": "CCCCOP(=O)(OCCCC)OC[C@H]1O[C@@H](n2cc(C)c(=O)[nH]c2=O)C[C@@H]1N=[N+]=[N-]", "cells": "C8166", "strain or isolate": "RF", "result": ">100 µM"}
{"SMILES": "C[C@@]12CCC[C@@](C)(C(=O)O)[C@H]1CC[C@@]13C[C@@H](CC[C@H]12)[C@@](O)(CO)C3", "cells": "H9", "strain or isolate": "IIIB", "result": ">100 µg/mL"}
{"SMILES": "COC(=O)[C@H](C)NP(=O)(OC[C@@H]1C=C[C@H](n2cc(C)c(=O)[nH]c2=O)O1)Oc1ccccc1", "cells": "MM + M/M", "strain or isolate": "BaL", "result": "0.02 µM"}